In patent publication US6340697B1, “Oxime derivatives and agricultural chemicals containing the same” (Dainippon Ink and Chemicals, Inc., priority 1997, dated 2002):

Tested on: Pseudoperonospora cubensis (a metalaxyl resistant fungi strain)
Assay: Control test of plant disease caused by Pseudoperonospora cubensis (leaf disc test; Test Examples 3 and 8)
Format: in vivo

## Cc1nsnc1C(=NOCc1csc(NC(=O)C(Cl)Cl)n1)c1ccccc1 [8-(b)-18]
Cucumber leaf disc immersed 30 minutes at 10 ppm, metalaxyl resistant strain, 7 days
  Evaluation: B (grade “B” was selected when the number of diseased plants, which include plants with lesions or withered plants, is around 10% among the total numbers of plants)

## Cc1nonc1C(=NOCc1ccccn1)c1ccc(Cl)cc1 [4-(c)-3]
Test Example 8, leaf disc test, same method as Test Example 3, Table 99
  Evaluation: B (grade “B” was selected when the number of diseased plants, which include plants with lesions or withered plants, is around 10% among the total numbers of plants)
